In article PMC3806850, “The Tumor Targeted Superantigen ABR-217620 Selectively Engages TRBV7-9 and Exploits TCR-pMHC Affinity Mimicry in Mediating T Cell Cytotoxicity” (PLoS ONE, 2013):

Tests used:
[1] = target: ABR-217620 (naptumomab estafenatox, 5T4Fab-SEA/E-120); assay: SPR
[2] = target: Recombinant human 5T4-IgG1Fc (Homo sapiens, UniProt Q13641)

Work on “soluble TCR reagent TRBV7-9 (disulfide-linked αβ-heterodimer)” yielded a Kd (C215Fab-SEA/E-120) of 580 nM and a Kd [1] of 480 nM.

B1: ABR-217620 (naptumomab estafenatox, 5T4Fab-SEA/E-120) (Fab, V domains shown)
VH: EVQLQQSGPDLVKPGASVKISCKASGYSFTGYYMHWVKQSPGKGLEWIGRINPNNGVTLYNQKFKDKATLTVDKSSTTAYMELRSLTSEDSAVYYCARSTMITNYVMDYWGQGTSVTVSS
VL: SIVMTQTPTSLLVSAGDRVTITCKASQSVSNDVAWYQQKPGQSPKLLISYTSSRYAGVPDRFSGSGYGTDFTLTISSVQAEDAAVYFCQQDYNSPPTFGGGTKLEIK
B1 was tested, and the Kd [2] was 0.21 nM, the koff [2] was 7.5e-05 s⁻¹ and the kon [2] was 360000 M⁻¹ s⁻¹.
